Experimental data: article PMC11022072, “A secreted bacterial protein protects bacteria from cationic antimicrobial peptides by entrapment in phase-separated droplets” (2024)

Target: N-lobe of M. bovis LbpB in the His-BAP-MBP vector (BLI construct) (Moraxella bovis strain N114)
Test: BLI

In the case of “bovine lactoferrin (Lf) (natural protein)”, the fold weaker than CaHD:Lf is reported as 5 fold.
